Measured values from patent publication US20190100761A1, “COMPOSITIONS AND METHODS FOR ENHANCED GENE EXPRESSION AND VIRAL REPLICATION” (priority 2016, published 2019).

Tested on: IAV strain PR8
Assay type: cell-based, influenza A virus

## YTHDF2: human cytoplasmic m^6A reader protein, SEQ ID NO: 5, overexpressed in cells
  IAV viral protein levels: far higher levels
